PubChem BioAssay AID624099 – ICCB-Longwood | 2012

- Purpose: 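Human genes that papillomavirus E2 requires to repress the HPV18 LCR promoter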 (primary screen)
- Cells: human C33A cervical carcinoma cells (HPV-negative) stably expressing BPV1 E2 and an HPV18 LCR luciferase reporter
- Knock-down reagent: siRNA pool against human genes, 40 nM
- Duration: 72 h
- Detection: 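Per-well luciferase luminescence, z-scored on each plate against the plate mean and SD with control wells left out, then averaged across three replicate plates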
- Reading the numbers: mean z-score and z-score: higher = stronger reporter signal, weaker E2 silencing
- Rule for the call: 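Mean z ≥ 2 together with z ≥ 2 in two or more of the three replicates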
The whole screen tested about 21,000 reagents; shown is a part drawn at random. 497 of all reagents (2.4%) were called active. 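Higher z means weaker E2 silencing; only reporter increases were scored, and knock-downs that hurt cell survival may mask genuine repressor factors.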

OR2M2 (olfactory receptor family 2 subfamily M member 2) [SID134326962]: mean z-score = 1.07; z-score, replicate A = 1.21; z-score, replicate B = 0.83; z-score, replicate C = 1.17; outcome = inactive
HTR4 (5-hydroxytryptamine receptor 4) [SID134311080]: mean z-score = 0.25; z-score, replicate A = 0.37; z-score, replicate B = 0.18; z-score, replicate C = 0.21; outcome = inactive
B3GALT5 (beta-1,3-galactosyltransferase 5) [SID134316449]: mean z-score = -0.22; z-score, replicate A = -0.27; z-score, replicate B = -0.18; z-score, replicate C = -0.21; outcome = inactive
CFAP61 (cilia and flagella associated protein 61) [SID134318117]: mean z-score = 0.11; z-score, replicate A = -0.07; z-score, replicate B = 0.13; z-score, replicate C = 0.26; outcome = inactive
PRSS57 (serine protease 57) [SID134330016]: mean z-score = -1.27; z-score, replicate A = -1.41; z-score, replicate B = -1.15; z-score, replicate C = -1.25; outcome = inactive
LOC285563 (retired record) [SID134326084]: mean z-score = 0.16; z-score, replicate A = 0.18; z-score, replicate B = -0.15; z-score, replicate C = 0.45; outcome = inactive
LOC285563 (retired record) [SID134327578]: mean z-score = 0.44; z-score, replicate A = 0.31; z-score, replicate B = 0.63; z-score, replicate C = 0.39; outcome = inactive
LOC285563 (retired record) [SID134327579]: mean z-score = 0.21; z-score, replicate A = 0.06; z-score, replicate B = 0.21; z-score, replicate C = 0.37; outcome = inactive
LOC285563 (retired record) [SID134327581]: mean z-score = -0.07; z-score, replicate A = 0.15; z-score, replicate B = -0.77; z-score, replicate C = 0.39; outcome = inactive
LOC285563 (retired record) [SID134327583]: mean z-score = 0.36; z-score, replicate A = 0.2; z-score, replicate B = 0.28; z-score, replicate C = 0.58; outcome = inactive
FGD6 (FYVE, RhoGEF and PH domain containing 6) [SID134326672]: mean z-score = 1.55; z-score, replicate A = 1.64; z-score, replicate B = 1.71; z-score, replicate C = 1.31; outcome = inactive
SNX19 (sorting nexin 19) [SID134328248]: mean z-score = 1; z-score, replicate A = 1.24; z-score, replicate B = 0.96; z-score, replicate C = 0.81; outcome = inactive
AP3B1 (adaptor related protein complex 3 subunit beta 1) [SID134321466]: mean z-score = 0.29; z-score, replicate A = 0.5; z-score, replicate B = 0.28; z-score, replicate C = 0.09; outcome = inactive
TPRG1L (tumor protein p63 regulated 1 like) [SID134323178]: mean z-score = -0.82; z-score, replicate A = -0.73; z-score, replicate B = -1.1; z-score, replicate C = -0.62; outcome = inactive
EIF1 (eukaryotic translation initiation factor 1) [SID134319825]: mean z-score = 0.63; z-score, replicate A = 0.6; z-score, replicate B = 0.69; z-score, replicate C = 0.61; outcome = inactive
RIGI (RNA sensor RIG-I) [SID134316775]: mean z-score = -0.21; z-score, replicate A = -0.37; z-score, replicate B = -0.15; z-score, replicate C = -0.12; outcome = inactive
ANO10 (anoctamin 10) [SID134321616]: mean z-score = -0.91; z-score, replicate A = -0.69; z-score, replicate B = -0.98; z-score, replicate C = -1.06; outcome = inactive
RPGRIP1L (RPGRIP1 like) [SID134325426]: mean z-score = -0.19; z-score, replicate A = -0.04; z-score, replicate B = -0.24; z-score, replicate C = -0.29; outcome = inactive
TRO (trophinin) [SID134322870]: mean z-score = 0.19; z-score, replicate A = 0; z-score, replicate B = 0.09; z-score, replicate C = 0.49; outcome = inactive
KCNJ12 (potassium inwardly rectifying channel subfamily J member 12) [SID134311660]: mean z-score = -0.78; z-score, replicate A = -0.97; z-score, replicate B = -0.67; z-score, replicate C = -0.72; outcome = inactive
NDUFB10 (NADH:ubiquinone oxidoreductase subunit B10) [SID134316937]: mean z-score = -0.99; z-score, replicate A = -0.9; z-score, replicate B = -0.83; z-score, replicate C = -1.24; outcome = inactive

3 of these entries in another layout.
| gene | PubChem SID | mean z-score | z-score, replicate A | z-score, replicate B | z-score, replicate C | outcome |
| --- | --- | --- | --- | --- | --- | --- |
| SNX19 (sorting nexin 19) | SID134328248 | 1 | 1.24 | 0.96 | 0.81 | inactive |
| AP3B1 (adaptor related protein complex 3 subunit beta 1) | SID134321466 | 0.29 | 0.5 | 0.28 | 0.09 | inactive |
| TPRG1L (tumor protein p63 regulated 1 like) | SID134323178 | -0.82 | -0.73 | -1.1 | -0.62 | inactive |
